Data published in ChEMBL document CHEMBL4033629, “Synthesis, biological evaluation and molecular modeling of 2-Hydroxyisoquinoline-1,3-dione analogues as inhibitors of HIV reverse transcriptase associated ribonuclease H and polymerase” (Eur J Med Chem, 2017).

System: Human immunodeficiency virus
Experiment: Selectivity ratio of IC50 for full length HIV reverse transcriptase polymerase activity to IC50 for full length HIV RT-RNase H activity

| SMILES | Ratio IC50 |
| --- | --- |
| COc1cc2c(cc1-c1ccccc1)CC(=O)N(O)C2=O | < 6 |
| O=C1Cc2c(Cc3ccc(Br)cc3)cccc2C(=O)N1O | 12 |
| Cc1ccc(Cc2cccc3c2CC(=O)N(O)C3=O)cc1 | 12 |
| COc1cc2c(cc1-c1ccc(F)cc1F)CC(=O)N(O)C2=O | < 6 |
| O=C(Cc1ccc(F)cc1)Nc1ccc2c(c1)CC(=O)N(O)C2=O | 2 to 7 |
| O=C1Cc2c(Cc3ccc(C(F)(F)F)cc3)cccc2C(=O)N1O | 12 |
| O=C1Cc2c(Cc3ccc(F)cc3F)cccc2C(=O)N1O | 12 |
| O=C(Nc1ccc2c(c1)CC(=O)N(O)C2=O)c1ccccc1 | 2 to 7 |
| O=C(Nc1ccc2c(c1)CC(=O)N(O)C2=O)c1ccc(F)cc1 | 2 to 7 |
| COc1cc2c(cc1-c1ccco1)CC(=O)N(O)C2=O | < 6 |
| COc1cc2c(cc1-c1ccc(F)cc1)CC(=O)N(O)C2=O | < 6 |
| O=C(Cc1ccccc1)Nc1ccc2c(c1)CC(=O)N(O)C2=O | 7 |
